Results deposited as PubChem BioAssay AID1259414 (Drosophila RNAi Screening Center, 2018)

- Aim: 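Fly genes that alter Wolbachia amount inside host cells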 (primary screen)
- Cell system: Drosophila JW18 cells infected with Wolbachia
- Reagents: long dsRNA against Drosophila genes, 0.25 µg dsRNA per well of a 384-well plate
- Duration: 5 days
- Treatment: cells persistently infected with Wolbachia before knock-down; no added drug
- Measurement: 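Imaged fluorescence in situ signal for Wolbachia 23S rRNA per DAPI-counted host cell, given as a robust z-score within each plate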
- Direction: Wolbachia per cell robust z: higher = more Wolbachia per host cell than the plate typical
- Hit rule: 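Hit when robust z is 1.5 or more, or -1.5 or less, in at least two of three replicates; excludes dsRNAs with several or no targets, genes not expressed in JW18 and well A1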
The deposit covers about 24,000 reagents; this is a random part of those with a known target gene and a result. In the full data, about 1,210 (5%) were called active. 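Inactive calls also include excluded dsRNAs with several or no targets, genes unexpressed in JW18, and well A1, regardless of score.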 Names joined by + are all predicted targets of the reagent. No sequences are given here.

target,dsRNA,"Wolbachia per cell robust z, rep 1","Wolbachia per cell robust z, rep 2","Wolbachia per cell robust z, rep 3",call
woc,DRSC15928,0.152,0.265,1.78,inactive
Cpr73D,DRSC11084,-1.37,0.551,0.242,inactive
Cpr73D,DRSC26591,0.6,-0.673,0.291,inactive
CG15083,DRSC06514,-3.45,-0.436,-3.42,active
edl,DRSC06516,0.399,-0.278,0.318,inactive
edl,DRSC28035,-2.66,0.998,0.616,inactive
Kr-h1,DRSC00908,0.698,0.292,0.235,inactive
Kr-h1,DRSC03355,-5.73,-8.31,0.962,inactive
Kr-h1,DRSC23629,-0.745,-0.981,-1.34,inactive
14-3-3zeta,DRSC05028,-1.03,-0.66,0.128,inactive
14-3-3zeta,DRSC27525,0.477,0.725,1.06,inactive
14-3-3zeta,DRSC40722,-0.364,-0.314,-2.47,inactive
Prp39,DRSC15133,1.79,0.551,-0.884,inactive
Prp39,DRSC25186,-1.54,-0.718,-1.05,inactive
COX6AL2 + Ir75d,DRSC10081,-1.41,-0.704,0.427,inactive
CG30280,DRSC21761,0.157,-0.732,0.311,inactive
CG6059,DRSC15958,-0.341,-0.0349,0.198,inactive
CG6891,DRSC20016,-0.186,-9.35,-1.16,inactive
CG6891,DRSC25854,-0.516,-0.0424,-1.72,inactive
ast,DRSC00803,-2.81,0.0592,0.175,inactive
ast,DRSC27973,-1.9,-1,-0.901,inactive

Sorted by “Wolbachia per cell robust z, rep 1” (low to high): 3 of the entries above.
target,dsRNA,"Wolbachia per cell robust z, rep 1","Wolbachia per cell robust z, rep 2","Wolbachia per cell robust z, rep 3",call
Cpr73D,DRSC11084,-1.37,0.551,0.242,inactive
woc,DRSC15928,0.152,0.265,1.78,inactive
Cpr73D,DRSC26591,0.6,-0.673,0.291,inactive

Next reagents:
target,dsRNA,"Wolbachia per cell robust z, rep 1","Wolbachia per cell robust z, rep 2","Wolbachia per cell robust z, rep 3",call
CG5381,DRSC02852,0.923,-2.26,-4.99,active
CG18428,DRSC15326,-4.88,-1.33,0.0707,inactive
CG18428,DRSC29185,0.576,0.045,-0.119,inactive
Ddr,DRSC02150,-0.644,0.81,0.0862,inactive
Ddr,DRSC03229,-0.1,-1.41,-1.09,inactive
Ddr,DRSC03230,0.685,0.46,-2.79,inactive
Ddr,DRSC22818,0.765,0.327,-0.177,inactive
Cow,DRSC13601,-1.62,-1.31,-1.1,inactive
Cow,DRSC14680,0.78,-1.57,1.01,inactive
Cow,DRSC29766,0.326,0.174,-0.231,inactive
Gr97a,DRSC13802,0.221,0.655,0.235,inactive
Septin1,DRSC20573,0.388,0.776,0.89,inactive
CG3434,DRSC10365,-6.82,-0.688,0.0582,inactive
PolrMT,DRSC00660,-0.0228,-0.522,-0.368,inactive
fh,DRSC18430,0.781,0.579,-0.564,inactive
RpS27,DRSC14244,1.34,0.874,1.94,inactive
RpS27,DRSC29946,3.4,2.22,4.58,active
IP3K2,DRSC19500,-3.37,-1.81,-1.31,inactive
IP3K2,DRSC19711,0,-0.51,-2.38,inactive
IP3K2,DRSC19747,-1.02,0.37,-0.546,inactive
IP3K2,DRSC22614,0.655,0.532,0.113,inactive
IP3K2,DRSC24796,0.959,0.819,0.257,inactive
IP3K2,DRSC27191,0.89,1.3,-0.291,inactive
rho,DRSC08734,0.0242,0.0343,0.356,inactive
rho,DRSC40738,-2.42,-2.25,-2.17,active
